A mixed list of measured activities; the numbers were collected in NIAID ChemDB.

All rows: tests on isolated targets; organism: HIV-1; protein: Integrase; endpoint: IC50

Rows are shuffled and stem from different studies.

SMILES,method,result
CN1CCn2c(nc(C(=O)NCc3ccc(F)cc3)c(O)c2=O)C(N(C)Cc2ccccc2)C1,ELISA,<10 µM
CC(C)C(=O)c1cn2c(c(O)c1=O)C(=O)N(Cc1cccc(Cl)c1)CC2,ELISA,<0.01 µM
CN1CCn2c(nc(C(=O)NCc3ccc(F)c(Cl)c3)c(O)c2=O)C(N(C)C(=O)C(=O)N(C)C)C1,ELISA,<10 µM
NC(=O)c1cc(=O)c(O)c2n1CCN(Cc1ccc(Cl)c(Cl)c1)C2=O,ELISA,0.01–0.1 µM
CC(=O)N(CC(C)C)C1CN(C)CCn2c1nc(C(=O)NCc1ccc(F)cc1)c(O)c2=O,ELISA,<10 µM
COCCN(C)C(=O)c1cn2ccn(Cc3cccc(Cl)c3)c(=O)c2c(O)c1=O,ELISA,0.01–0.1 µM
O=C(O)/C(O)=C/C(=O)N(CCOc1ccccc1)Cc1ccc(F)cc1,strand transfer,<70 µM
CC(=O)N(C)CCC1CN(Cc2ccc(F)cc2)C(=O)c2c(O)c(=O)n(C(C)C)c(=O)n21,strand transfer,<10 µM
COCCN(Cc1ccc(F)cc1)C(=O)/C=C(\O)C(=O)O,strand transfer,<70 µM
CC(C)n1c(=O)c(O)c2n(c1=O)CCN(Cc1cc3ccccc3cn1)C2=O,strand transfer,<10 µM
O=C1c2c(O)c(=O)c(-c3nccs3)cn2CCN1Cc1ccc(F)c(Cl)c1,ELISA,<0.01 µM
O=C1c2c(O)c(=O)n(C3CCS(=O)(=O)c4ccccc43)c(=O)n2CCN1Cc1ccc(F)cc1,strand transfer,<10 µM
CCc1cn2ccn(Cc3cccc(Cl)c3)c(=O)c2c(O)c1=O,ELISA,0.01–0.1 µM
CN(Cc1cccc(-c2ccc(F)cc2)c1)C(=O)/C=C(\O)C(=O)O,strand transfer,<70 µM
O=C(NCc1ccc(F)cc1)c1nc2n(c(=O)c1O)CCNC21CCOCC1,ELISA,<10 µM
CN(Cc1cccc(F)c1)C(=O)/C=C(\O)C(=O)O,strand transfer,<70 µM
CCC(O)c1cn(Cc2ccc(Cl)c(Cl)c2)c(=O)c2c(O)c(=O)ccn12,ELISA,0.01–0.1 µM
CN(Cc1ccc(F)c2ccccc12)C(=O)/C=C(\O)C(=O)O,strand transfer,<70 µM
O=c1ccn2ccn(CCCc3cccc(Cl)c3Cl)c(=O)c2c1O,ELISA,0.01–0.1 µM
CC(C)n1c(=O)c(O)c2n(c1=O)C(CCN(C)C(=O)c1ccccc1)CN(Cc1ccc(F)cc1)C2=O,strand transfer,<10 µM
CC(=O)N1CCn2c(nc(C(=O)NCc3ccc(F)cc3)c(O)c2=O)C1,ELISA,<10 µM

2 of the rows above, restated:

SMILES,method,result
CC(C)n1c(=O)c(O)c2n(c1=O)C(CCN(C)C(=O)c1ccccc1)CN(Cc1ccc(F)cc1)C2=O,strand transfer,<10 µM
CC(=O)N(CC(C)C)C1CN(C)CCn2c1nc(C(=O)NCc1ccc(F)cc1)c(O)c2=O,ELISA,<10 µM

a–b is a range or a potency band. ICn is the concentration giving n% inhibition.